{
  "source": "patent US20010014534A1",
  "about": "“Stripper composition and stripping method” (NEC Corporation, priority 2000, published 2001)",
  "data": [
    {"test_system": "liquid culture medium containing a particular microorganism", "test": "Biodegradability according to the OECD method", "settings": "decomposition percent of test compound after 28 days, stored at 25° C.", "values": [
      {"molecule": "O=C(O)c1cc(O)c(O)c(O)c1", "note": "[Gallic acid]", "Biodegradability": "◯ (Biodegradability is 30% to less than 80%.)"},
      {"molecule": "Oc1cccc(O)c1O", "note": "[Pyrogallol]", "Biodegradability": "◯ (Biodegradability is 30% to less than 80%.)"},
      {"molecule": "NC(N)=O", "note": "[Urea]", "Biodegradability": "⊚ (Biodegradability is 80% or more.)"}
    ]}
  ]
}
